Anti-infective test results gathered from many reports (values: NIAID ChemDB through PubChem).

Common to all: growth or infection tests; agent: Aspergillus fumigatus; measure: MIC50

A number after MIC or MFC names an inhibition level or a share of isolates. Conditions beyond the fields shown may differ between rows. Blank or dashed fields: not listed here.

structure | strain | result
C[C@@H](c1ncncc1F)[C@](O)(Cn1cncn1)c1ccc(F)cc1F | 150 clinical isolates | 0.25 µg/mL
CC[C@@H]([C@H](C)O)n1ncn(-c2ccc(N3CCN(c4ccc(OC[C@@H]5CO[C@@](Cn6cncn6)(c6ccc(F)cc6F)C5)cc4)CC3)cc2)c1=O | 17 isolates | ≤0.002 µg/mL
CCC(C)n1ncn(-c2ccc(N3CCN(c4ccc(OC[C@H]5CO[C@](Cn6cncn6)(c6ccc(Cl)cc6Cl)O5)cc4)CC3)cc2)c1=O | 62 isolates | 0.25 µg/mL
C[C@@H](c1ncncc1F)[C@](O)(Cn1cncn1)c1ccc(F)cc1F | 3 clinical isolates | 0.5 µg/mL
C[C@H]1[C@H](O)[C@@H](C)/C=C/C=C/C=C/C=C/C=C/C=C/C=C/[C@H](O[C@@H]2O[C@H](C)[C@@H](O)[C@H](N)[C@@H]2O)C[C@@H]2O[C@](O)(C[C@@H](O)C[C@@H](O)CC[C@H](O)[C@@H](O)C[C@@H](O)CC(=O)O[C@H]1C)C[C@H](O)[C@H]2C(=O)O | 12 strains | 2 µg/mL
C[C@@H](c1nc(-c2ccc(C#N)cc2)cs1)[C@](O)(Cn1cncn1)c1ccc(F)cc1F | 256 isolates | 0.25 µg/mL
CC(=O)N1CCN(c2ccc(OC[C@H]3CO[C@](Cn4ccnc4)(c4ccc(Cl)cc4Cl)O3)cc2)CC1 | 25 isolates | 4 µg/mL
CCC(C)CC(C)CCCCCCCCC(=O)N[C@H]1C[C@@H](O)[C@H](NCCN)NC(=O)[C@@H]2[C@@H](O)CCN2C(=O)[C@H]([C@H](O)CCN)NC(=O)[C@H]([C@H](O)[C@@H](O)c2ccc(O)cc2)NC(=O)[C@@H]2C[C@@H](O)CN2C(=O)[C@H]([C@@H](C)O)NC1=O | 25 isolates | 0.5 µg/mL
C[C@@H](c1nc(-c2ccc(C#N)cc2)cs1)[C@](O)(Cn1cncn1)c1ccc(F)cc1F | 314 isolates | 0.5 µg/mL
C[C@H]1[C@H](O)[C@@H](C)/C=C/C=C/C=C/C=C/C=C/C=C/C=C/[C@H](O[C@@H]2O[C@H](C)[C@@H](O)[C@H](N)[C@@H]2O)C[C@@H]2O[C@](O)(C[C@@H](O)C[C@@H](O)CC[C@H](O)[C@@H](O)C[C@@H](O)CC(=O)O[C@H]1C)C[C@H](O)[C@H]2C(=O)O | 17 isolates | 1 µg/mL
C[C@@H]1C/C=C/C=C/C=C/C=C/[C@H](OC2O[C@H](C)[C@@H](O)[C@H](N)[C@@H]2O)CC2O[C@](O)(C[C@@H](O)C[C@H]3O[C@@H]3/C=C/C(=O)O1)C[C@H](O)[C@H]2C(=O)O | Species complex | 4 µg/mL
C[C@@H]([C@H](N)C(=O)N[C@H](C(=O)O)[C@H]1O[C@@H](n2ccc(=O)[nH]c2=O)[C@H](O)[C@@H]1O)[C@H](O)c1ccc(O)cn1 | 13 isolates | >64 µg/mL
CCN1CCC(O)(/C=C/c2ccc(Cl)cc2)C(C(=O)/C=C/c2ccc(Cl)cc2)C1 | 20 strains | 2.92 µg/mL
C/C=C/CN=C(N)NCCCCCCCN1CCCCCCCCN=C(N)NC1=O | - | 73 µM
C[C@@H](c1ncncc1F)[C@](O)(Cn1cncn1)c1ccc(F)cc1F | 28 isolates | 0.06 µg/mL
C[C@@H](n1cnc2cc(Cl)ccc2c1=O)[C@](O)(Cn1cncn1)c1ccc(F)cc1F | 10 clinical isolates | 0.06 µg/mL
Nc1[nH]c(=O)ncc1F | 17 isolates | 16 µg/mL
CC(=O)OCC1C=C(c2ccc(Cl)c(Cl)c2)C(=O)O1 | 12 isolates | 2 µg/mL
C[C@H]1[C@H](O)[C@@H](C)/C=C/C=C/C=C/C=C/C=C/C=C/C=C/[C@H](O[C@@H]2O[C@H](C)[C@@H](O)[C@H](N)[C@@H]2O)C[C@@H]2O[C@](O)(C[C@@H](O)C[C@@H](O)CC[C@H](O)[C@@H](O)C[C@@H](O)CC(=O)O[C@H]1C)C[C@H](O)[C@H]2C(=O)O | - | 0.5 µg/mL
CCC(C)n1ncn(-c2ccc(N3CCN(c4ccc(OC[C@H]5CO[C@](Cn6cncn6)(c6ccc(Cl)cc6Cl)O5)cc4)CC3)cc2)c1=O | 12 strains | 1 µg/mL
CCCCCOc1ccc(-c2cc(-c3ccc(C(=O)N[C@H]4C[C@@H](O)[C@@H](O)NC(=O)[C@@H]5[C@@H](O)[C@@H](C)CN5C(=O)[C@H]([C@H](O)CC(N)=O)NC(=O)[C@H]([C@H](O)[C@@H](O)c5ccc(O)c(OS(=O)(=O)O)c5)NC(=O)[C@@H]5C[C@@H](O)CN5C(=O)[C@H]([C@@H](C)O)NC4=O)cc3)no2)cc1 | 29 isolates | 0.0078 µg/mL
CCC(C)n1ncn(-c2ccc(N3CCN(c4ccc(OC[C@H]5CO[C@](Cn6cncn6)(c6ccc(Cl)cc6Cl)O5)cc4)CC3)cc2)c1=O | 35 isolates | 0.25 µg/mL
C[C@@H](c1ncncc1F)[C@](O)(Cn1cncn1)c1ccc(F)cc1F | 256 isolates | 0.25 µg/mL
C[C@@H](c1ncncc1F)[C@](O)(Cn1cncn1)c1ccc(F)cc1F | - | 0.25 µg/mL
CCC(C)n1ncn(-c2ccc(N3CCN(c4ccc(OC[C@H]5CO[C@](Cn6cncn6)(c6ccc(Cl)cc6Cl)O5)cc4)CC3)cc2)c1=O | 314 isolates | 0.25 µg/mL
C[C@H]1[C@H](O)[C@@H](C)/C=C/C=C/C=C/C=C/C=C/C=C/C=C/[C@H](O[C@@H]2O[C@H](C)[C@@H](O)[C@H](N)[C@@H]2O)C[C@@H]2O[C@](O)(C[C@@H](O)C[C@@H](O)CC[C@H](O)[C@@H](O)C[C@@H](O)CC(=O)O[C@H]1C)C[C@H](O)[C@H]2C(=O)O | 25 isolates | 4 µg/mL
CC[C@@H]([C@H](C)O)n1ncn(-c2ccc(N3CCN(c4ccc(OC[C@@H]5CO[C@@](Cn6cncn6)(c6ccc(F)cc6F)C5)cc4)CC3)cc2)c1=O | 256 isolates | 0.25 µg/mL
C[C@@H](c1ncncc1F)[C@](O)(Cn1cncn1)c1ccc(F)cc1F | 35 isolates | 0.5 µg/mL
C[C@@H](c1ncncc1F)[C@](O)(Cn1cncn1)c1ccc(F)cc1F | - | 0.2 µg/mL
C[C@H]1[C@H](O)[C@@H](C)/C=C/C=C/C=C/C=C/C=C/C=C/C=C/[C@H](O[C@@H]2O[C@H](C)[C@@H](O)[C@H](N)[C@@H]2O)C[C@@H]2O[C@](O)(C[C@@H](O)C[C@@H](O)CC[C@H](O)[C@@H](O)C[C@@H](O)CC(=O)O[C@H]1C)C[C@H](O)[C@H]2C(=O)O | 35 isolates | 2 µg/mL